Assay results as given in paper PMC10619133, “The catechol moiety of obafluorin is essential for antibacterial activity” (RSC Chemical Biology, 2023).

Key:
[1] = Chrome azurol S (CAS) Fe3+ binding assay
[2] = Metal binding by ESI-HRMS
[3] = 4-(2-Pyridylazo)-resorcinol (PAR) Zn2+ binding assay; details: molar ratios 0.5-25 compound : Zn^2+

For `O=C(N[C@@H]1C(=O)O[C@@H]1Cc1ccc([N+](=O)[O-])cc1)c1ccccc1` [compound 4, BA-obafluorin], the “Fe^3+ binding, CAS colour change blue to orange (in words)” value (shortened to “Fe^3+ binding, CAS colour change blue”) [1] was “abolishes”.
In the case of `O=C(N[C@@H]1C(=O)O[C@@H]1Cc1ccc([N+](=O)[O-])cc1)c1ccccc1O` [compound 2, 2-HBA-obafluorin], the “Fe^3+ binding, CAS colour change blue” value [1] is reported as “abolishes”.
In the case of `O=C(N[C@H](C(=O)O)[C@H](O)Cc1ccc([N+](=O)[O-])cc1)c1cccc(O)c1O` [compound 5, β-lactone hydrolysed obafluorin], the “Fe^3+ binding, CAS colour change blue” value [1] is reported as “much more pronounced than with 2,3-DHBA alone”.
For `O=C(N[C@@H]1C(=O)O[C@@H]1Cc1ccc([N+](=O)[O-])cc1)c1cccc(O)c1` [compound 3, 3-HBA-obafluorin], the “Fe^3+ binding, CAS colour change blue” value [1] was “abolishes”.
With `O=C(N[C@@H]1C(=O)O[C@@H]1Cc1ccc([N+](=O)[O-])cc1)c1cccc(O)c1O` [compound 1, Obafluorin] the “Fe^3+ binding, CAS colour change blue” value [1] was “strong ferric iron binding”, the “metal binding by ESI-HRMS (mass shift)” value ([2]; +Fe^2+ (1 mM)) was “No mass shift” and the “metal binding by ESI-HRMS (mass shift)” value ([2]; +Fe^3+ (1 mM), compound 100 μg mL^−1) was “strong, selective interaction”. For the same molecule, the “metal binding by ESI-HRMS (mass shift)” value ([2]; +Ga^3+ (1 mM)) was “No mass shift”, the “metal binding by ESI-HRMS (mass shift)” value ([2]; +Mg^2+ (1 mM)) was “No mass shift” and the “metal binding by ESI-HRMS (mass shift)” value ([2]; +Mn^2+ (1 mM)) was “a peak consistent with a [M − H + Mn^2+]^+ species”. For the same molecule, the “metal binding by ESI-HRMS (mass shift)” value ([2]; +Zn^2+ (1 mM)) was “No mass shift”, the “metal binding by ESI-HRMS (species observed)” value ([2]; mixture of all metal ions tested) was “only the [M − 2H + Fe^3+]^+ ion was observed” and the “Zn^2+ binding, displacement of PAR from Zn(PAR)2 (in words)” value [3] was “some weak Zn^2+ binding”.
For `COC(=O)[C@@H](NC(=O)c1cccc(O)c1O)[C@H](O)Cc1ccc([N+](=O)[O-])cc1` [compound 6, β-lactone methanolysed obafluorin], the “Fe^3+ binding, CAS colour change blue” value [1] was “much more pronounced than with 2,3-DHBA alone”.
With `c1ccc(CN(CCN(Cc2ccccn2)Cc2ccccn2)Cc2ccccn2)nc1` [TPEN, N,N,N′,N′-tetrakis(2-pyridinylmethyl)-1,2-ethanediamine, reference compound] the “Zn^2+ binding, displacement of PAR from Zn(PAR)2 (in words)” value [3] was “completely displaced PAR at molar ratios of >1”.
